Legend:
[1] = biological target: T1, H1 stem (#4900), HA stem construct derived from the A/Brisbane/59/2007 (H1N1) HA (Designed HA stem #4900 from influenza A …, stabilised); test: BLI; conditions: both partners purified
T1 chain 1: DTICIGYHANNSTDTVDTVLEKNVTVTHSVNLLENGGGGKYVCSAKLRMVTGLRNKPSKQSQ
T1 chain 2: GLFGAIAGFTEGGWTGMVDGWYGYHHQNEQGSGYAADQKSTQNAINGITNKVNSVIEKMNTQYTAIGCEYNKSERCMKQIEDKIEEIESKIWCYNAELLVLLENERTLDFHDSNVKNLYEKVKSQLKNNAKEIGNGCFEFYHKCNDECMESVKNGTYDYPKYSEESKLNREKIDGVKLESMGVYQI

[2] = biological target: T2, H1 stem (#4900), HA stem construct derived from the A/Brisbane/59/2007 (H1N1) HA (Designed HA stem #4900 from influenza A …, stabilised); test: BLI; conditions: both partners purified
T2 chain 1: T1 chain 1
T2 chain 2: T1 chain 2

B1: HB31 VH R55G germline revertant Fab (Fab, V domains shown)
VH: EVQLLESGGGLVQPGGSLRLSCTVSGFTSSNYDMSWVRQAPGKGLEWVSGISGTGGDTYYADSVKGRFTISRDNSKNTLSLQMNSLRADDTAVYFCARDRPVLRYFDWQPYGLDVWGKGTTVTVSS
VL: QSALTQPPSASGSPGQSVTISCTGTSSDVGGYNYVSWYQQYPSKAPKLMIYEVSKRPSGVPDRFSGSKSGNTASLTVSGLQAEDEADYYCNSYAGSNLYVFGTGTKVTVL
Kd [1]: 5.8 nM

B2: HB31 VH R55G germline revertant IgG (antibody, V domains shown)
VH: B1 VH
VL: B1 VL
notes: copies: 2 + 2
Kd [1]: 10.7 nM

B3: HB31 VH R55G revertant, IgG format (antibody, V domains shown)
VH: B1 VH
VL: B1 VL
fold weaker KD than HB31 wild type IgG [2]: 4 fold

Reference: PMC13438699 (Nature Communications, 2026)
